Only a part is listed here, and it is no random draw. The source made the active and inactive calls. The call rests on the fitted dose curve; in most records, active means well fitted inhibition curve with a large enough effect; inconclusive means small, poorly fitted or top-dose-only effect; inactive means no such curve, though single readings can be large or run the other way.
Target: Phosphoglycerate kinase, glycosomal (Trypanosoma brucei brucei) (UniProt P07378)
Assay: qHTS Assay to Find Inhibitors of Phosphoglycerate Kinase; further: nearly all actives have a fitted effect of over 60% in size
Settings: PGK/GAPDH coupled, Kinase-Glo luminescence, 60 min; activity change, negative = inhibition: at 57.5 µM (top of the series)
Source text: Several species of the Trypanosomatidae family of parasitic protozoans cause a spectrum of diseases throughout the tropical and subtropical world. Sleeping sickness, caused by two subspecies of Trypanosoma brucei, is endemic to areas of sub-Saharan Africa, while Chagas disease, a manifestation of Trypanosoma cruzi infection, is prevalent throughout Central and South America. In addition, many species of Leishmania are responsible for a range of cutaneous and visceral diseases, causing ulcers, destructive lesions and kalaazar, a lethal infection of the viscera. Collectively, these organisms infect 30 million people worldwide (~500 million live in endemic areas), and account for ~130,000 deaths annually. Given their debilitating and prevalent nature, trypanosomatid parasites impose a heavy medical, economic and social burden on entire populations, primarily in the developing world. The problem is further exacerbated by the fact that existing treatments have progressed little in the past 50 years, and current drugs show high toxicity and poor efficacy. […] Blood-stream stages of T. brucei are entirely dependent on glycolysis as a source of ATP, and the tricarboxylic acid cycle and oxidative phosphorylation are both repressed. Glycolysis in axenically cultured T. cruzi, representing the intracellular pathogenic stage, is also essential for these parasites. […] Previous studies have shown that the glycolytic enzyme, phosphoglycerate kinase (PGK), is a viable target for drugs to kill these parasites. […] NIH Molecular Libraries Probe Production Network [MLPCN] NIH Chemical Genomics Center [NCGC] MLPCN Grant: R03 MH093212 PI Name: Malcolm Walkinshaw, University of Edinburgh
3ul of substrate/PGK buffer (columns 1,2,5-48) are dispensed into Greiner white solid bottom 1536-well assay plates; columns 3-4 receive only TEA buffer as 0x PGK controls. Compounds are then transferred via Kalypsys pin tool equipped with 1536-pin array (10nl slotted pins, V&P Scientific, San Diego, CA). Following addition of compound, 1ul of GAPDH (100nM final concentration, all columns) is added to initiate the reaction (this upstream coupling enzyme is necessary for in-well production of PGK substrate, 1,3-bisphosphoglycerate (1,3-BPG), which is unstable and not commercially available). The plates are then incubated at room temperature for 60 minutes. Kinase-Glo Plus reagent is added (2ul) and plates incubated for 10 minutes, before being transferred to a ViewLux high-throughput CCD imager (PerkinElmer) wherein single end-point measurements of luminescence are acquired using a clear filter. All reagents are diluted in an assay buffer consisting of 100mM TEA (pH 7.6), 5mM MgCl2 and 0.01% Tween-20.
On the % scale 0 is the no-effect control and ±100 the full control effect.

SMILES	activity change, negative = inhibition
O=[N+]([O-])c1cc([N+](=O)[O-])c(Nc2ccc(Cl)cc2)c([N+](=O)[O-])c1	inactive: -3.05%
CN(C)c1cccc(C(=O)NCC2(N3CCCCC3)CCCCC2)c1	inactive: -9.01%
O=[N+]([O-])c1cc([N+](=O)[O-])c(OC2CCCCC2O)c([N+](=O)[O-])c1 (stereo unspecified)	inactive
COc1ccc(CN(CCCl)CCCl)cc1Cl	inactive: 7.82%
CC(C)c1ccc(NC2CCN(C(=O)OC(C)(C)C)CC2)cc1	inactive
O=C(NCC1(N2CCOCC2)CCCCC1)c1cc(F)c(F)cc1Cl	inactive: 15.4%
COc1cc(OC)c(C(=O)NCC2(N(C)C)CCCCC2)cc1OC	inactive: -2.4%
O=C(NCC1(N2CCOCC2)CCCCC1)c1cc2ccccc2o1	inactive: 2.94%
Cc1cc(C)cc(N(C(=O)c2ccccc2)C2CCN(C(=O)OC(C)(C)C)CC2)c1	inactive: -6.12%
O=C(NCC1(N2CCCCC2)CCCCC1)c1ccc(Cl)nc1	inactive
COc1ccc(Cl)cc1C(=O)NCC1(N2CCOCC2)CCCCC1	inactive: -4.31%
O=C(OC1CN2CCC1CC2)C1c2ccccc2Oc2ccccc21 (stereo unspecified)	inactive: -3.85%
O=C(NCC1(N2CCCCC2)CCCCC1)c1ccc(Cl)s1	inactive: 0.448%
N#CC1(Nc2ccccc2)CCN(Cc2ccccc2)CC1	inactive: -5.69%
O=C(NCC1(N2CCCCC2)CCCCC1)c1cccs1	inactive: -3.05%
O=C(NCC1(N2CCCCC2)CCCCC1)c1ccc(=O)[nH]c1	inactive

SMILES	activity change, negative = inhibition
COc1ccc(C(=O)NCC2(N3CCCCC3)CCCCC2)c(OC)c1OC	inactive: -0.707%
COc1ccc(C(=O)NCC2(N3CCCCC3)CCCCC2)cc1	inactive: -6.58%
Cc1cccc(NC2(C#N)CCN(Cc3ccccc3)CC2)c1	inactive: 8.72%
CSc1ccccc1C(=O)NCC1(N2CCCCC2)CCCCC1	inactive: -5.66%
COc1cc(C(=O)NCC2(N(C)C)CCCCC2)ccc1OC(F)F	inactive: -4.3%
CCOC(=O)N1CCC(Nc2cccc(C)c2)CC1	inactive: -0.544%
CCOc1ccc(C)cc1CN(CCCl)CCCl	inactive
O=C1CCN(Cc2ccccc2)CC1	inactive: 1.17%
O=C(NCC1(N2CCOCC2)CCCCC1)c1ccc(Cl)cc1	inactive: -1.92%
CCOC(=O)N1CCC(Nc2ccc(F)cc2)CC1	inactive: -5.24%
COc1ccc(NC2CCN(CCc3ccccc3)CC2)c(OC)c1	inactive: 8.74%
O=C(NCC1(N2CCCCC2)CCCCC1)c1ccc(F)cc1	inactive: 5.64%
CCCCOc1ccc(C(=O)NCC2(N3CCOCC3)CCCCC2)cc1	inactive: 0.649%
O=P1(N(CCCl)CCCl)SCCCS1	inactive: -1.18%
COc1ccccc1C(=O)NCC1(N2CCOCC2)CCCCC1	inactive: -5.3%

From PubChem BioAssay AID602233 (National Center for Advancing Translational Sciences (NCATS), 2012)
